A mixed list of measured activities; the numbers were collected in NIAID ChemDB.

Shared fields: target-level tests; organism: HIV-1; protein: Reverse transcriptase; measure: inhibition

Lines come from different laboratories, so protocols vary. Blank or dashed fields: not listed here. Percent inhibition refers to the dose given; in toxicity tests it is the harm to the cells.

compound	strain or isolate	changes	read by	dose	result
CN1C(=O)c2cc(Cl)nnc2N(C2CC2)c2ccccc21				330 µM	72%
CC(Sc1nc(Cl)cc(Cc2ccccc2)n1)c1ccccc1			ELISA	100 µM	0%
CC(C)Nc1cccnc1NCCNC(=O)c1cc2ccccc2[nH]1			nucleotide incorporation	100 µM	2%
C=C(C)C1C=C[C@@H](OC(=O)c2cccnc2)C23COC(C)(C(=O)[C@@]4(OC(C)=O)C[C@H](C)[C@H](OC(=O)CCC)C4[C@H]2OC(=O)CCC)C13			nucleotide incorporation	200 µg/mL	92.7%
CCCCCCCCCCCCCCCC(=O)Nc1c(O)cc(S(=O)(=O)O)c2ccccc12			RT activity	50 µM	99.98%
O=C1c2ccccc2-[n+]2ccc3c([nH]c4ccccc43)c21				1000 µg/mL	58%
CCCC(=O)OCCCC[C@H]1CCCCCC[C@@H](C)NC(N)=[NH+]1			RT activity / radiometric	10 µM	0%
CS(=O)(=O)O.C[C@@H]1CN(c2cc3c(cc2F)c(=O)c(C(=O)O)cn3-c2cccc3ccccc23)C[C@H](C)N1			ELISA	1 µg/mL	47%
CCCCCCCCCCCC(=O)OCCCC[C@H]1CCCCCC[C@@H](C)NC(N)=[NH+]1			RT activity / radiometric	10 µM	3.5%
COc1c(O)cc2oc(-c3ccc(O)cc3)cc(=O)c2c1O				200 µg/mL	57.9%
C[Si](O)(O[Si](C)(CCCn1cnc2c(N)ncnc21)c1ccccc1)c1ccccc1				400 µM	30%
CCCCCCCCCCCCCCCC(=O)NCC1OC(n2cnc3c(N)ncnc32)C(OP(=O)(O)OCC2OC(n3cnc4c(N)ncnc43)C(OP(=O)(O)OCCOCn3cnc4c(N)ncnc43)C2O)C1O	IIIB		RT activity	100 µM	64%
COc1c(C)c(O)c(C)c(O)c1C(=O)/C=C/c1ccccc1			RT activity / nucleotide incorporation / radiometric	200 µg/mL	67.5%
CCCN1C(=O)c2ccnnc2Oc2ccc(OC)cc21			ELISA	33 µM	12%
CC(=O)OCCCC[C@H]1CCCCCC[C@@H](C)NC(N)=[NH+]1			RT activity / radiometric	40 µM	0.3%
O=S(=O)(O)OCC1OC2OC3C(COS(=O)(=O)O)OC(OC4C(COS(=O)(=O)O)OC(OC5C(COS(=O)(=O)O)OC(OC6C(COS(=O)(=O)O)OC(OC7C(COS(=O)(=O)O)OC(OC8C(COS(=O)(=O)O)OC(OC1C(OS(=O)(=O)O)C2OS(=O)(=O)O)C(OS(=O)(=O)O)C8OS(=O)(=O)O)C(OS(=O)(=O)O)C7OS(=O)(=O)O)C(OS(=O)(=O)O)C6OS(=O)(=O)O)C(OS(=O)(=O)O)C5OS(=O)(=O)O)C(OS(=O)(=O)O)C4OS(=O)(=O)O)C(OS(=O)(=O)O)C3OS(=O)(=O)O	BRU			25 µg/mL	0%
Cc1ccc(S(=O)(=O)c2c(-c3ccccc3)[nH]c3ccccc23)cc1		WT	RT activity	100 µM	58%
C[C@@H]1CCCCCC[C@H](CCCCO)[NH+]=C(N)N1			RT activity / radiometric	40 µM	14.6%
CCN1c2ccccc2N(C)C(=O)c2ccnnc21				330 µM	84%
CS(=O)(=O)O.N[C@H]1CCN(c2cc3c(cc2F)c(=O)c(C(=O)O)cn3-c2cccc3ccccc23)C1			ELISA	1 µg/mL	39%
CCN1c2ncccc2C(=O)Nc2c(COc3ccccc3)cc(-c3cccc(OC)c3)nc21	WT			69 µM	1%
CCCN1c2ccc(C)cc2N(C)C(=O)c2cc(Cl)nnc21				330 µM	27%
Nc1ccn([C@@H]2O[C@H](COP(=O)(O)O[C@@H]3[C@H](O)[C@@H](COP(=O)(O)O[C@@H]4[C@H](O)[C@@H](CO)O[C@H]4n4ccc(N)nc4=O)O[C@H]3n3ccc(N)nc3=O)[C@@H](O)[C@H]2O)c(=O)n1			nucleotide incorporation / radiometric	400 µM	40%
CC(C)(C)c1ccc(CSc2nc(Cc3ccccc3)cc(=O)[nH]2)cc1			ELISA	100 µM	0%
CC1=C2CC[C@@H](C)[C@]3(C[C@@H](c4ccoc4)OC3=O)[C@H]2CCC1=O			RT activity / luminescence	100 µM	20%
CC1CN(c2nc3c(cc2F)c(=O)c(C(=O)O)cn3-c2ccc3ccccc3c2)CCN1.CS(=O)(=O)O			ELISA	1 µg/mL	25%
CCN1c2ncccc2C(=O)Nc2c(C=O)cc(OC)nc21	WT			78 µM	1%
Cc1cccc(C)c1OCC(=O)N[C@@H](Cc1ccccc1)[C@H](O)[C@@H](O)[C@@H]1CCCN1C(=O)COc1c(C)cccc1C				0.0000001 µM	74%
CCN1c2ncccc2C(=O)Nc2c(COCc3ccccc3)cc(=O)[nH]c21		RT-Y181C		38 µM	1%
O=C(CCCCCCCCC(=O)Nc1ccc(S(=O)(=O)O)c2ccccc12)Nc1ccc(S(=O)(=O)O)c2ccccc12			RT activity	50 µM	6%
C=C(C)C1C=C[C@@H](OC(=O)c2cccnc2)C23COC(C)(C(=O)[C@@]4(OC(C)=O)C[C@H](C)[C@H](OC(=O)CC)C4[C@H]2OC(=O)CC)C13			nucleotide incorporation	200 µg/mL	49.5%
CC(C)(C)c1ccc(CSc2nc(Cl)cc(Cc3ccccc3)n2)cc1			ELISA	100 µM	0%
O=S(=O)(c1ccc(Cl)cc1)c1c[nH]c2ccccc12		K103N	RT activity	100 µM	62%
CCN1c2ncccc2-c2cscc2-c2cccnc21			nucleotide incorporation	1 µM	90%
COc1cc(O)c2c(=O)cc(-c3cc(O)c(OC)c(O)c3)oc2c1				200 µg/mL	12.1%
CCCCCCCCCCCCCCCC(=O)Oc1cc(S(=O)(=O)O)c2ccccc2c1N			RT activity	50 µM	93.5%
CN1CC2(CCN(C(=O)c3cc4cc(NS(C)(=O)=O)ccc4[nH]3)CC2)c2ncccc21				100 µM	38%
C[C@@H]1CCCCCC[C@H](CCCCO[Si](C)(C)C(C)(C)C)[NH+]=C(N)N1			RT activity / radiometric	10 µM	15.5%
Cc1cc(C)c(S(=O)(=O)Oc2ccc3cccc(S(=O)(=O)O)c3c2)c(C)c1S(=O)(=O)Oc1ccc2cccc(S(=O)(=O)O)c2c1			RT activity	50 µM	77%
CCN1c2ncccc2C(=O)Nc2c(Cc3ccccc3)cc(-c3cccc(OC)c3)nc21	WT			20 µM	1%
CCOC(=O)CN1C(=O)c2cc(Cl)nnc2Oc2ccccc21			ELISA	33 µM	26%
CS(=O)(=O)O.O=C(O)c1cn(-c2cccc3ccccc23)c2nc(N3CCNCC3)c(F)cc2c1=O			ELISA	1 µg/mL	45%
O=C(O)c1cc(NS(=O)(=O)c2cccc3c(S(=O)(=O)Nc4cc(C(=O)O)c(O)c(S(=O)(=O)O)c4)cccc23)cc(S(=O)(=O)O)c1O			RT activity	50 µM	54%
CCN1C(=O)c2ccnnc2N(C2CC2)c2ccccc21				330 µM	58%
CN1CCN(c2cc3c(cc2F)c(=O)c(C(=O)O)cn3-c2ccc3ccccc3c2)CC1.CS(=O)(=O)O			ELISA	1 µg/mL	38%
O=C(CCCCCCCCC(=O)Nc1cc(S(=O)(=O)O)cc2cc(S(=O)(=O)O)cc(O)c12)Nc1cc(S(=O)(=O)O)cc2cc(S(=O)(=O)O)cc(O)c12			RT activity	50 µM	70%
Cc1cc(C=O)cc(C)c1Oc1cc(Nc2ccc(C#N)cc2)nc2ccccc12			RT activity / ELISA	1 µM	34%
CS(=O)(=O)Nc1cccnc1N1CCN(C(=O)c2cc3ccccc3[nH]2)CC1			nucleotide incorporation	100 µM	44%
CCCCCN1C(=O)c2cc(Cl)nnc2Oc2ccc(C)cc21			ELISA	330 µM	26%
O=S(=O)(O)c1cc(S(=O)(=O)O)c2cc(NS(=O)(=O)c3ccc(-c4ccc(S(=O)(=O)Nc5ccc6cc(S(=O)(=O)O)cc(S(=O)(=O)O)c6c5)cc4)cc3)ccc2c1			RT activity	50 µM	72%
Cc1ccc(S(=O)(=O)c2c(C)[nH]c3ccccc23)cc1		K103N	RT activity	100 µM	64%
S=C(NCCc1ccccn1)Nc1cnccn1				3.3 µM	11%
C=C1C(=O)O[C@@H]2C[C@@H]3[C@]4(CC[C@]5(C)[C@@H]([C@H](C)CCC=C(C)C)CC[C@@]35C)C[C@]4(CCC(=O)OC)[C@H]12				200 µg/mL	9.9%
C=CCN1C(=O)c2ccnnc2Oc2ccc(C)cc21			ELISA	33 µM	29%
CCNc1cccnc1N1CCN(CCc2cc(C)c(OC)c(C)c2)CC1			nucleotide incorporation	100 µM	34%
CCCCCCCCCCCCCCCCOCC(COC(=O)CCC(=O)OC1CC(COP(=O)(O)OC2CC(COP(=O)(O)OC3CC(CO)OC3n3cnc4c(N)ncnc43)OC2n2cnc3c(N)ncnc32)OC1n1cnc2c(N)ncnc21)OCCCCCCCCCCCCCCCC				300 µM	77%
CN1CCN(c2nc3c(cc2F)c(=O)c(C(=O)O)cn3-c2ccc3ccccc3c2)CC1.CS(=O)(=O)O			ELISA	1 µg/mL	39%
CCNc1cccnc1N1CCN(CCc2cc(C)c(O)c(C)c2)CC1			nucleotide incorporation	100 µM	24%
Cc1c(C)c2c(c(C)c1OC(=O)OC1CC(COP(=O)(O)OC3CC(COP(=O)(O)OC4CC(CO)OC4n4cnc5c(N)ncnc54)OC3n3cnc4c(N)ncnc43)OC1n1cnc3c(N)ncnc31)CCC(C)(CCCC(C)CCCC(C)CCCC(C)C)O2				300 µM	52%
CC(C)Nc1cccnc1N(C)C1CCN(C(=O)c2cc3ccccc3[nH]2)C1			nucleotide incorporation	100 µM	24%
CCN1c2ncccc2-c2nnsc2-c2cccnc21			nucleotide incorporation	1 µM	70%
CCN1c2ncccc2C(=O)Nc2c(C3OCCCO3)cc(-c3cccc(OC)c3)nc21	WT			40 µM	1%
C=C1CC[C@@H](OC(=O)CCC(=O)OC2CC(COP(=O)(O)OC3CC(COP(=O)(O)OC4CC(CO)OC4n4cnc5c(N)ncnc54)OC3n3cnc4c(N)ncnc43)OC2n2cnc3c(N)ncnc32)C/C1=C/C=C1\CCC[C@]2(C)[C@@H]([C@@H](C)/C=C/[C@H](C)C(C)C)CC[C@@H]12				300 µM	85%
CCN1c2ncccc2C(=O)Nc2c(Cc3ccccc3)cc(=O)[nH]c21	WT			67 µM	1%
S=C(NCCc1ccccn1)Nc1ccncn1				330 µM	100%
CC(C)Nc1cccnc1N(C)N(C)C(=O)c1cc2ccccc2[nH]1			nucleotide incorporation	100 µM	12%
CCCCCCCCCCCCCCCC(=O)Nc1ccc(S(=O)(=O)O)c2cccc(S(=O)(=O)O)c12			RT activity	50 µM	97.2%
C[C@@H]1CCC2=C(C=O)CCC[C@@H]2[C@@]12C[C@@H](c1ccoc1)OC2=O			RT activity / luminescence	100 µM	20%
CCCCCCCCCCCCCCCC(=O)NCC1CC(OP(=O)(O)OCC2CC(OP(=O)(O)OCC3CC(O)C(n4cnc5c(N)ncnc54)O3)C(n3cnc4c(N)ncnc43)O2)C(n2cnc3c(N)ncnc32)O1	IIIB		RT activity	100 µM	26.8%
Cc1cc(C)c(S(=O)(=O)Nc2cc(C(=O)O)c(O)c(S(=O)(=O)O)c2)c(C)c1S(=O)(=O)Nc1cc(C(=O)O)c(O)c(S(=O)(=O)O)c1			RT activity	50 µM	68%

The first 5 rows once more:

| compound | strain or isolate | changes | read by | dose | result |
|---|---|---|---|---|---|
| CN1C(=O)c2cc(Cl)nnc2N(C2CC2)c2ccccc21 |  |  |  | 330 µM | 72% |
| CC(Sc1nc(Cl)cc(Cc2ccccc2)n1)c1ccccc1 |  |  | ELISA | 100 µM | 0% |
| CC(C)Nc1cccnc1NCCNC(=O)c1cc2ccccc2[nH]1 |  |  | nucleotide incorporation | 100 µM | 2% |
| C=C(C)C1C=C[C@@H](OC(=O)c2cccnc2)C23COC(C)(C(=O)[C@@]4(OC(C)=O)C[C@H](C)[C@H](OC(=O)CCC)C4[C@H]2OC(=O)CCC)C13 |  |  | nucleotide incorporation | 200 µg/mL | 92.7% |
| CCCCCCCCCCCCCCCC(=O)Nc1c(O)cc(S(=O)(=O)O)c2ccccc12 |  |  | RT activity | 50 µM | 99.98% |